Measured values from several laboratories, pooled; numbers as filed in NIAID ChemDB.

All rows: whole-cell or culture tests; organism: HIV-1; read by: cytopathic effect; measure: EC50

ECn is the concentration giving n% inhibition of infection, replication or growth.

{"SMILES": "COP(=O)(c1cc(C)cc(CCC#N)c1)c1c(C(N)=O)[nH]c2ccc(Cl)c(F)c12", "strain or isolate": "IIIB", "changes": "Y181C", "cell line": "MT-4", "value": "0.0028 µM"}
{"SMILES": "Cc1ccc(OCCOCn2cc(Br)c(=O)[nH]c2=O)cc1", "cell line": "CEM + CEM-SS", "value": "69.1 µM"}
{"SMILES": "Cc1cccc(Cn2c(=O)ccn(CC#N)c2=O)c1", "strain or isolate": "IIIB", "cell line": "PBMC", "value": "6.7 µM"}
{"SMILES": "CC1(C)C=Cc2c(O)c(C(=O)c3ccccc3)c3oc(=O)cc(-c4ccccc4)c3c2O1", "strain or isolate": "RF", "cell line": "CEM + CEM-SS", "value": "13 µg/mL"}
{"SMILES": "O=C(O)[C@H]1O[C@@H](Oc2cc(O)c3c(=O)cc(-c4ccc(O)cc4)oc3c2)[C@H](O)[C@@H](O)[C@@H]1O", "strain or isolate": "IIIB", "cell line": "MT-4", "value": ">0.32 µg/mL"}
{"SMILES": "C[C@H](CCCC(c1cc(Cl)c(O)c(C(=O)O)c1)c1cc(Cl)c(O)c(C(=O)O)c1)[C@H]1CC[C@H]2[C@@H]3CC[C@@H]4CCCC[C@]4(C)[C@H]3CC[C@]12C", "strain or isolate": "RF", "cell line": "CEM + CEM-SS", "value": "28 µM"}
{"SMILES": "O=c1[nH]c(=O)n(COCCOc2ccc(Cl)cc2)cc1Br", "cell line": "CEM + CEM-SS", "value": ">100 µM"}
{"SMILES": "CC1=CC(=C(c2ccc(N)c(S(=O)(=O)O)c2)c2ccc(N)c(S(=O)(=O)O)c2)C=C(S(=O)(=O)O)C1=N", "cell line": "HuT-78", "value": "16 µM"}
{"SMILES": "Cc1cn([C@H]2C[C@H](N)[C@@H](COCP(=O)(O)O)O2)c(=O)[nH]c1=O", "strain or isolate": "IIIB", "cell line": "MT-4", "value": "500 µM"}
{"SMILES": "Nc1ccn([C@H]2C=C[C@@H](CO)O2)c(=O)n1", "strain or isolate": "IIIB", "cell line": "ATH8", "value": "<0.5 µM"}
{"SMILES": "CC1(C)[C@@H](CCO)C[C@H]1n1cnc2c(N)ncnc21", "cell line": "CEM", "value": ">20 µg/mL"}
{"SMILES": "CC(C)CCC[C@@H](C)[C@H]1CC[C@H]2[C@]3(C)CC[C@H]4C[C@@H](CCCC=C(c5cc(Cl)c(O)c(C(=O)O)c5)c5cc(Cl)c(O)c(C(=O)O)c5)CC[C@]4(C)[C@H]3CC[C@@]21C", "strain or isolate": "RF", "cell line": "CEM + CEM-SS", "value": "3.4 µM"}
{"SMILES": "O=C1CSC(c2c(F)cccc2F)N1c1cc(Cl)cc(Cl)c1", "strain or isolate": "IIIB", "cell line": "MT-4", "value": "0.97 µM"}
{"SMILES": "COc1cc(Cn2c(=O)ccn(CC#N)c2=O)cc(OC)c1", "strain or isolate": "IIIB", "cell line": "PBMC", "value": "5.64 µM"}
{"SMILES": "Cc1cc(=O)[nH]c(=O)n1COCCOc1ccc(Cl)cc1", "cell line": "CEM + CEM-SS", "value": ">100 µM"}
{"SMILES": "CCn1cc(C(=O)O)c(=O)c2cc(F)c(N3CCN(c4ccccc4OC)CC3)c(OC(F)F)c21", "cell line": "MT-4", "value": "0.29 µM"}
{"SMILES": "Cc1ccc(Cn2c(=O)ccn(CC#N)c2=O)cc1", "strain or isolate": "IIIB", "cell line": "PBMC", "value": "94.8 µM"}
{"SMILES": "Cc1ccc(OCCOCn2ccc(=O)[nH]c2=O)cc1", "cell line": "CEM + CEM-SS", "value": "16.1 µM"}
{"SMILES": "Cc1cc(C)cc(Cn2c(=O)ccn(CC#N)c2=O)c1", "strain or isolate": "IIIB", "cell line": "PBMC", "value": "0.59 µM"}
{"SMILES": "Nc1nc2c(ccn2C2CC(CO)(CO)C2)c(=O)[nH]1", "strain or isolate": "LAV", "cell line": "CEM", "value": ">30 µg/mL"}
{"SMILES": "C=C(C)[C@@H]1C[C@@H](C)[C@H](C)c2cc(O)c(C)cc21", "cell line": "C8166", "value": "12.8 µg/mL"}
{"SMILES": "Cc1cn([C@H]2C=C[C@@](C)(CO)O2)c(=O)[nH]c1=O", "strain or isolate": "IIIB", "cell line": "MT-2", "value": ">100 µM"}
{"SMILES": "CCCCCCCCCCCCCCCCCCCCCCCCCCCCCC=C(c1cc(Cl)c(O)c(C(=O)O)c1)c1cc(Cl)c(O)c(C(=O)O)c1", "strain or isolate": "RF", "cell line": "CEM + CEM-SS", "value": "13 µM"}
{"SMILES": "CC1(C)[C@@H](CCO)C[C@H]1n1nnc2c(=O)[nH]cnc21", "cell line": "CEM", "value": ">100 µg/mL"}
{"SMILES": "O=C1c2ccccc2C(=O)c2c1ccc(O)c2O", "strain or isolate": "IIIB", "cell line": "MT-4", "value": "19 µg/mL"}
{"SMILES": "O=C1CSC(c2c(Cl)cccc2Cl)N1c1cc(F)cc(F)c1", "strain or isolate": "IIIB", "cell line": "MT-4", "value": "0.13 µM"}
{"SMILES": "CC(C)(C)C(=O)Nc1ccn([C@H]2CC[C@@H](CO)O2)c(=O)n1", "value": ">100 µM"}
{"SMILES": "Cc1ccc(Cn2c(=O)ccn(CC#N)c2=O)cc1C", "strain or isolate": "IIIB", "cell line": "PBMC", "value": "3.75 µM"}
{"SMILES": "Cc1cn([C@H]2C=C[C@@H](CO)O2)c(=O)[nH]c1=O", "cell line": "C8166", "value": "0.32 µM"}
{"SMILES": "Nc1ncnc2c1ncn2[C@H]1CO[C@@H](CCP(=O)(O)O)O1", "cell line": "MT-4", "value": "47 µg/mL"}
{"SMILES": "Nc1ccn(CCN2C(=O)CSC2COCc2ccccc2)c(=O)n1", "cell line": "MT-4", "value": "≥100 µM"}
{"SMILES": "CCC(=O)Nc1ccn([C@H]2CC[C@@H](CO)O2)c(=O)n1", "value": "36 µM"}
{"SMILES": "O=C1c2ccccc2C(=O)c2c1cc(S(=O)(=O)O)c(O)c2O", "strain or isolate": "IIIB", "cell line": "SupT1 + Sup-T1", "value": ">50 µg/mL"}
{"SMILES": "O=C(O)C1=CC(=C(c2ccc(O)c(C(=O)O)c2)c2ccc(O)c(C(=O)O)c2)C=CC1=O", "cell line": "MT-4", "value": "5 µM"}
{"SMILES": "O=C(O)C(O)c1ccccc1", "strain or isolate": "IIIB", "cell line": "MT-2", "value": "6.5 µg/mL"}
{"SMILES": "CC1(C)[C@@H](CCO)C[C@H]1n1nnc2c(=O)[nH]c(N)nc21", "cell line": "CEM", "value": ">100 µg/mL"}
{"SMILES": "O=C1CSC(c2c(F)cccc2F)N1c1cccc(Br)c1", "strain or isolate": "IIIB", "cell line": "MT-4", "value": "1.32 µM"}

Rows are shuffled and stem from different studies.